Data from PMC8539749 (Viruses, 2021).
Entries after “also recorded” stand apart in the source; their conditions may differ. Positions of bridges follow the written chain, without caps; N, C: chain ends. Residues, ends and D or L forms follow the SMILES beside them.

Protein sequences, listed by entry. Tags and fused reporters are not part of them. Residues count along the entry.
UniProt R4V2Q5, 21-452 limits assumed: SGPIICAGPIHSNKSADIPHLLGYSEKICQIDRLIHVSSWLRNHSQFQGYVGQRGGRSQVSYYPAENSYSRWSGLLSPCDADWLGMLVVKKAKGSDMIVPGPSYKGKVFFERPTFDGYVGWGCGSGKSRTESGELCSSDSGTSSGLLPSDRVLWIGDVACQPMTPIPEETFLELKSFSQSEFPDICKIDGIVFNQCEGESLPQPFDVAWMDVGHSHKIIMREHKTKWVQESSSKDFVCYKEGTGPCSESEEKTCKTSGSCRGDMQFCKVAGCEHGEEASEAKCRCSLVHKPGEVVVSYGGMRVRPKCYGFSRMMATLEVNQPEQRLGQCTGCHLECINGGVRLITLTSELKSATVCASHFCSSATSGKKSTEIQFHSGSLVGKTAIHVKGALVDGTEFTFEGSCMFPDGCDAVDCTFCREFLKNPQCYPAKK

Legend:
SFTSV [1] = assay type: cell-based, SFTSV HB29 strain
SFTSV [2] = assay type: cell-based, SFTSV HB29 strain; remark: listed apart in the source
SFTSV Gn = SFTSV Gn (Dabie bandavirus, UniProt R4V2Q5); assay type: binding, severe fever with thrombocytopenia syndrome virus

Structure (SMILES): N=C(N)NCCC[C@@H]1NC(=O)[C@@H](NC(=O)[C@@H](N)CCCCN)CCCCNC(=O)[C@H](CO)NC(=O)CNC(=O)[C@H](Cc2ccccc2)NC(=O)CNC1=O [HKU-P1] (H-KKRGFGS; lactam 2-C)
- SFTSV viral RNA load reduction, neutralization group (SFTSV [1]): > 40%
- neutralization of SFTSV virion (in words) (SFTSV [1]): potently neutralizes the SFTSV virion
- viral load reduction, neutralization group (in words) (SFTSV [1]): Significant viral load reduction
- Loewe additivity index, all combinations (SFTSV [2]): < 1
- inhibition of biotin-HKU-P1 binding (in words) (SFTSV Gn): inhibited the binding of biotin-HKU-P1 to the SFTSV Gn protein; also recorded: inhibited the binding of biotin-HKU-P1 in a dose-dependent manner
